ChEMBL document CHEMBL1145842, “A selective human H(4)-receptor agonist: (-)-2-cyano-1-methyl-3-[(2R,5R)-5- [1H-imidazol-4(5)-yl]tetrahydrofuran-2-y] methylguanidine” (J Med Chem, 2003)

Amino acid sequences for entries named in this document (tags omitted). A change or cut given only in a name is not applied to a line headed by its entry.
UniProt Q9H3N8: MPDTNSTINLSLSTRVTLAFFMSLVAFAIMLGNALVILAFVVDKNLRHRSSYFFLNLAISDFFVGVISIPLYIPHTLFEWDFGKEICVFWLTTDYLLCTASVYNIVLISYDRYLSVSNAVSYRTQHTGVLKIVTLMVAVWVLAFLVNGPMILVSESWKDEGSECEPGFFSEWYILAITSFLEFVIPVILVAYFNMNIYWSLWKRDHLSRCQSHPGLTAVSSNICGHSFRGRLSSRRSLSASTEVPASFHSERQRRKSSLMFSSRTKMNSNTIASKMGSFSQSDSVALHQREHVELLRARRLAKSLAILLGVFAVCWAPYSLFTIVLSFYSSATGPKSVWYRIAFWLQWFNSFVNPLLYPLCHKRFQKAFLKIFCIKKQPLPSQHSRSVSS

Tests used:
[1] = biological target: T1, Histamine H4 receptor (Homo sapiens, UniProt Q9H3N8); assay: Inhibition of the forskolin-stimulated cAMP production in SK-N-MC cells expressing human Histamine H4 receptor; type: functional, cell-based
[2] = biological target: T1, Histamine H4 receptor; assay: Histamine H4 receptor competition binding using [3H]Na-methylhistamine

C/N=C(\NC#N)NC[C@H]1CC[C@@H](c2c[nH]cn2)O1 (single isomer, unassigned)
EC50 [1]: 7.59 µM | Ki [2]: 8.13 µM
